# Experiments:
# The chains behind the UniProt entries cited, without tags or fusion partners.
# UniProt P47205, whole entry: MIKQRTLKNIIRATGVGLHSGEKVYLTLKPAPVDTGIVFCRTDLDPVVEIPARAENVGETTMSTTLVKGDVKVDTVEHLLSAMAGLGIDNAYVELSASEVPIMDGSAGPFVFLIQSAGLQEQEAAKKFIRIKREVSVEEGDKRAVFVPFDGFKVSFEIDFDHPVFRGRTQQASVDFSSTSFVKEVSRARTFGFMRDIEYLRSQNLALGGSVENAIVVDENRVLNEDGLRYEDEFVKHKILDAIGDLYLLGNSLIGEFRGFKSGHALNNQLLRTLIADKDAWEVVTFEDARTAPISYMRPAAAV
# [1] = test system: Escherichia coli EC-1: VOGEL, mouse virulent; assay: MIC determination (CLSI), EC-1; format: cell-based
# Description: (§1) The in vitro antibacterial activity of compounds described in the Examples was evaluated by minimum inhibitory concentration (MIC) testing according to Clinical and Laboratory Standards Institute (CLSI, formerly NCCLS) guidelines. See: Clinical and Laboratory Standards Institute. Methods for Dilution Antimicrobial Susceptibility Tests for Bacteria that Grow Aerobically; Approved Standard-Seventh Edition. CLSI document M7-A7 [ISBN 1-56238-587-9]. Clinical and Laboratory Standards Institute, 940 West Valley Road, Suite 1400, Wayne, Pa. 19087-1898 USA, 2006; also Clinical and Laboratory Standards Institute. Performance Standards for Antimicrobial Susceptibility Testing; Eighteenth Informational Supplement. CLSI document M100-S18 [ISBN1-56238-653-0]. Clinical and Laboratory Standards Institute.
# (§2) The following bacterial strains were used in these MIC determinations:
# 3) Escherichia coli EC-1: VOGEL, mouse virulent labeled as EC-1 in Tables 1, 2 and 3;
# [2] = test system: Acinetobacter baumanii/haemolyticus: Multidrug-resistant clinical isolate (AB-3167); assay: MIC determination (CLSI), AB-3167; format: cell-based
# Description: as §1, §2
# 2) Acinetobacter baumanii/haemolyticus: Multidrug-resistant clinical isolate labeled as AB-3167 in Tables 1, 2 and 3;
# [3] = target: Pseudomonas aeruginosa LpxC enzyme (Pseudomonas aeruginosa (strain ATCC 15692 / DSM 22644 / CIP 104116 / JCM 14847 / LMG 12228 / 1C / PRS 101 / PAO1), UniProt P47205); assay: IC50 Assay, LpxC Enzyme from P. aeruginosa (PA LpxC Enzyme IC50); format: biochemical; conditions: read-out: PA LpxC enzyeme IC50; Table 1
# [4] = test system: Pseudomonas aeruginosa UI-18: Wild-type (PA-7); assay: MIC determination (CLSI), PA-7; format: cell-based
# Description: as §1, §2
# 1) Pseudomonas aeruginosa UI-18: Wild-type, labeled as PA-7 in Tables 1, 2 and 3;
SMILES,"EC-1: (MIC) ([1]; Table 1, MIC)","AB-3167 MIC ([2]; Table 1, MIC)",IC50 [3],"PA-7 MIC ([4]; Table 1, MIC)","EC-1 MIC ([1]; Escherichia coli EC-1 VOGEL, mouse virulent)",AB-3167 MIC ([2]; Acinetobacter baumanii/haemolyticus multidrug-resistant clinical isolate AB-3167),PA-7 MIC ([4]; Pseudomonas aeruginosa UI-18 wild-type PA-7)
COc1cc(-c2ccc(F)cc2)ccc1CCC(C)(C(=O)NO)S(C)(=O)=O (stereo not shown),4 µg/mL,16 µg/mL,0.63 nM,4 µg/mL,,,
CC(CCc1ccc(-c2ccc(O)cc2)cc1)(C(=O)NO)S(C)(=O)=O (stereo not shown),,,,,16 µg/mL,≧64 mg/L,2 µg/mL

# Reference: patent US8853258B2, “C-linked hydroxamic acid derivatives useful as antibacterial agents” (Pfizer Inc., priority 2009, dated 2014)
